Source: PubChem BioAssay AID602399 (Sanford-Burnham Center for Chemical Genomics, 2012)
The entries are a selection whose mix differs from that of the whole data set. Activity calls are given as the source filed them. No stated cut-off is given here; in the data, active means inhibition above about 26%; inactive means the rest.

system: Nicotinate-nucleotide adenylyltransferase NadD (Staphylococcus aureus N315); experiment: inhibitors of S. aureus NadD, primary screen, biochemical, colorimetric, uHTS (AID 602399); details: purified NadD enzyme, colorimetric absorbance read-out; at 20 µM; stronger effect = higher value

SMILES	inhibition
CN(C)C1(CNC(=O)c2cccc(C#N)c2)CCCCC1	inactive: -2.95%
c1ccc(CN2CCC(Nc3ccccc3)CC2)cc1	inactive: 2.21%
Cc1cc(N(CCCl)CCCl)ccc1C=O	inactive: -1.73%
O=c1[nH]c2ccccc2n1C1CCN(C(c2ccccc2)c2nnnn2C2CCCC2)CC1 (stereo not drawn)	inactive: 4.06%
CCCN1CCC(Nc2cc(OC)cc(OC)c2)CC1	inactive: -1.38%
CC(C)(C)n1nnnc1C(c1cccc2ccccc12)N1CCC(n2c(=O)[nH]c3ccccc32)CC1 (stereo not drawn)	inactive: 10.2%
N#Cc1ccc(C(=O)NCC2(N3CCCCC3)CCCCC2)cc1	inactive: -2.44%
CC(C)(C)OC(=O)N1CCC(N(C(=O)c2ccccc2)c2ccc(Cl)cc2)CC1	inactive: -4.85%
COc1cccc(C(c2nnnn2C(C)(C)C)N2CCC(n3c(=O)[nH]c4ccccc43)CC2)c1OC (stereo not drawn)	inactive: 4.53%
CCOC(=O)N1CCC(Nc2ccc(C)cc2)CC1	inactive: -8.63%
N/C(=N\O)c1c(N)no[n+]1[O-]	inactive: -3.88%
O=C(OC1CN2CCC1CC2)C1c2ccccc2C=Cc2ccccc21 (stereo not drawn)	inactive: -8.76%
O=c1[nH]c2ccccc2n1C1CCN(C(c2cccs2)c2nnnn2C2CCCC2)CC1 (stereo not drawn)	inactive: 6.72%
CCCCn1nnnc1C(c1cccc(OC)c1OC)N1CCC(n2c(=O)[nH]c3ccccc32)CC1 (stereo not drawn)	inactive: -1.78%
CCCCn1nnnc1C(c1ccccc1)N1CCC(n2c(=O)[nH]c3ccccc32)CC1 (stereo not drawn)	inactive: -1.3%
COc1cc(C(=O)NCC2(N3CCOCC3)CCCCC2)cc(OC)c1C	inactive: -7.18%
O=C(NCC1(N2CCOCC2)CCCCC1)c1cc(Br)ccc1Cl	inactive: 1%
O=c1[nH]c2ccccc2n1C1CCN(C(c2cccs2)c2nnnn2C2CCCCC2)CC1 (stereo not drawn)	inactive: 9.69%
COc1ccc(C(=O)NCC2(N3CCOCC3)CCCCC2)cc1OC	inactive: 3.02%
O=c1[nH]c2ccccc2n1C1CCN(C(c2ccnc3ccccc23)c2nnnn2C2CCCC2)CC1 (stereo not drawn)	inactive: 14.4%
COc1cccc(C(=O)N(c2cc(C)cc(C)c2)C2CCN(C(=O)OC(C)(C)C)CC2)c1	inactive: -0.328%
COc1cccc(C(c2nnnn2C2CCCC2)N2CCC(n3c(=O)[nH]c4ccccc43)CC2)c1OC (stereo not drawn)	inactive: 6.41%

SMILES	inhibition
COc1cc(OC)cc(C(=O)NCC2(N3CCOCC3)CCCCC2)c1	inactive: -2.26%
CCC(CO)(C(=O)OC1CN2CCC1CC2)c1ccccc1 (stereo not drawn)	inactive: -7.63%
CN1CCC(Nc2ccc(Cl)cc2)CC1	inactive: 0.887%
CCOc1ncccc1C(=O)NCC1(N2CCOCC2)CCCCC1	inactive: 4.05%
CN1CCC(Nc2ccc(F)c(Cl)c2)CC1	inactive: -6.79%
CC(C)(C)OC(=O)N1CCC(Nc2ccccc2)CC1	inactive: 3.95%
NN(c1ccccc1)C1CCN(CCc2ccccc2)CC1	inactive: 2.33%
O=C(O)C1(Nc2ccccc2)CCN(Cc2ccccc2)CC1	inactive: -8.55%
CCCOc1ccc(C(=O)NCC2(N(C)C)CCCCC2)cc1	inactive: -3.82%
O=c1[nH]c2ccccc2n1C1CCN(C(c2cc3ccccc3o2)c2nnnn2C2CCCC2)CC1 (stereo not drawn)	inactive: 20.3%
Cc1ccccc1NC1(C#N)CCN(Cc2ccccc2)CC1	inactive: -2.27%
CC(C)(C)n1nnnc1C(c1ccnc2ccccc12)N1CCC(n2c(=O)[nH]c3ccccc32)CC1 (stereo not drawn)	inactive: 4.07%
CCN1CCC(Nc2cccc(F)c2)CC1	inactive: 1.35%
COc1ccc(C(c2nnnn2C2CCCCC2)N2CCC(n3c(=O)[nH]c4ccccc43)CC2)cc1 (stereo not drawn)	inactive: 6.49%
O=C(NCC1(N2CCCCC2)CCCCC1)c1ccco1	inactive: -4.19%
Cn1c(=O)[nH]cc(N(CCCl)CCCl)c1=O	inactive: 1.33%
CN(C)c1ccc(C(=O)NCC2(N3CCCCC3)CCCCC2)cc1	inactive: -6.2%
CC(=O)N(c1ccccc1)C1CCNCC1	inactive: -1.75%
COc1cccc(C(c2nnnn2C2CCCCC2)N2CCC(n3c(=O)[nH]c4ccccc43)CC2)c1OC (stereo not drawn)	inactive: 9.53%
CCC(c1nnnn1C1CCCCC1)N1CCC(n2c(=O)[nH]c3ccccc32)CC1 (stereo not drawn)	inactive: -2.81%
O=c1[nH]c2ccccc2n1C1CCN(C(c2ccnc3ccccc23)c2nnnn2C2CCCCC2)CC1 (stereo not drawn)	inactive: 6.97%
COc1cc(OC)cc(C(=O)NCC2(N3CCCCC3)CCCCC2)c1	inactive: -0.448%

SMILES	inhibition
Cc1ccc(C(=O)NCC2(N3CCCCC3)CCCCC2)o1	inactive: -1.66%
Fc1ccccc1NC1CCN(Cc2ccccc2)CC1	inactive: 1.87%
Cc1ccc(NC2(C#N)CCN(Cc3ccccc3)CC2)cc1	inactive: -0.156%
O=c1[nH]c2ccccc2n1C1CCN(C(c2ccccc2)c2nnnn2C2CCCCC2)CC1 (stereo not drawn)	inactive: 9.84%
COc1cc(C(=O)NCC2(N(C)C)CCCCC2)ccc1OC(F)F	inactive: -2.16%
CCOC(=O)N1CCC(Nc2cccc(C)c2)CC1	inactive: -1.57%
O=c1[nH]c2ccccc2n1C1CCN(C(c2cccc3ccccc23)c2nnnn2C2CCCC2)CC1 (stereo not drawn)	active: 35%
CC(C)(C)n1nnnc1C(c1ccccc1)N1CCC(n2c(=O)[nH]c3ccccc32)CC1 (stereo not drawn)	inactive: 3.24%
O=C1CCN(Cc2ccccc2)CC1	inactive: 3.17%
CCOc1ccc(C)cc1CN(CCCl)CCCl	inactive: 2.47%
O=C(NCC1(N2CCCCC2)CCCCC1)c1ccc(F)cc1	inactive: 0.273%
CCCCOc1ccc(C(=O)NCC2(N3CCOCC3)CCCCC2)cc1	inactive: -2.22%
O=P1(N(CCCl)CCCl)SCCCS1	inactive: -1.46%
CCCCn1nnnc1C(c1cc2ccccc2o1)N1CCC(n2c(=O)[nH]c3ccccc32)CC1 (stereo not drawn)	active: 36.4%
CCOC(=O)N1CCC(Nc2ccc(F)cc2)CC1	inactive: -1.48%
COc1ccc(NC2CCN(CCc3ccccc3)CC2)c(OC)c1	inactive: -5.81%
O=c1[nH]c2ccccc2n1C1CCN(C(c2ccccc2OC(F)(F)F)c2nnnn2C2CCCCC2)CC1 (stereo not drawn)	inactive: 8.12%
O=C(NCC1(N2CCCCC2)CCCCC1)c1ccc(Cl)nc1	inactive: -1.78%
Cc1cc(C)cc(N(C(=O)c2ccccc2)C2CCN(C(=O)OC(C)(C)C)CC2)c1	inactive: 2.13%
O=C(NCC1(N2CCOCC2)CCCCC1)c1cc2ccccc2o1	inactive: 3.68%
O=c1[nH]c2ccccc2n1C1CCN(C(c2cc3ccccc3o2)c2nnnn2C2CCCCC2)CC1 (stereo not drawn)	inactive: 18.9%
O=C(OC1CN2CCC1CC2)C1c2ccccc2Oc2ccccc21 (stereo not drawn)	inactive: -6.06%

SMILES	inhibition
N#CC1(Nc2ccccc2)CCN(Cc2ccccc2)CC1	inactive: -3.45%
O=C(NCC1(N2CCCCC2)CCCCC1)c1ccc(Cl)s1	inactive: -2.96%
COc1ccc(Cl)cc1C(=O)NCC1(N2CCOCC2)CCCCC1	inactive: -3.31%
CCOC(=O)N1CCC(Nc2ccc(OC)cc2)CC1	inactive: -2.99%
CCCCn1nnnc1C(c1ccc(OC)cc1)N1CCC(n2c(=O)[nH]c3ccccc32)CC1 (stereo not drawn)	inactive: -3.89%
COc1ccc(C(=O)NCC2(N3CCCCC3)CCCCC2)cc1	inactive: -9.28%
CCC(c1nnnn1C1CCCC1)N1CCC(n2c(=O)[nH]c3ccccc32)CC1 (stereo not drawn)	inactive: 0.625%
CC(C)(C)OC(=O)N1CCC(N(C(=O)c2ccccc2)c2ccc(F)cc2)CC1	inactive: -5.02%
COc1ccc(C(=O)NCC2(N3CCCCC3)CCCCC2)c(OC)c1OC	inactive: 0.177%
O=C(NCC1(N2CCCCC2)CCCCC1)c1ccc(=O)[nH]c1	inactive: 4.85%
CCCCn1nnnc1C(c1cccs1)N1CCC(n2c(=O)[nH]c3ccccc32)CC1 (stereo not drawn)	inactive: 0.973%
O=C(NCC1(N2CCCCC2)CCCCC1)c1cccs1	inactive: -4.78%
CCCCn1nnnc1C(CC)N1CCC(n2c(=O)[nH]c3ccccc32)CC1 (stereo not drawn)	inactive: -2.97%
CSc1ccccc1C(=O)NCC1(N2CCCCC2)CCCCC1	inactive: -6.01%
Cc1cccc(NC2(C#N)CCN(Cc3ccccc3)CC2)c1	inactive: 0.781%
O=C(NCC1(N2CCCCC2)CCCCC1)c1cncc(Br)c1	inactive: -2.36%
CN1CCC(Nc2cccc(F)c2)CC1	inactive: 6.64%
COc1ccc(C(c2nnnn2C2CCCC2)N2CCC(n3c(=O)[nH]c4ccccc43)CC2)cc1 (stereo not drawn)	inactive: 8.76%
Cc1ccc(C(=O)NCC2(N(C)C)CCCCC2)o1	inactive: 5.15%
CCCOc1ccc(C(=O)NCC2(N(C)C)CCCCC2)cc1OC	inactive: -4.87%
CC(C)c1ccc(NC2CCN(C(=O)OC(C)(C)C)CC2)cc1	inactive: -1.2%
CCCCn1nnnc1C(c1ccccc1OC(F)(F)F)N1CCC(n2c(=O)[nH]c3ccccc32)CC1 (stereo not drawn)	inactive: 1.78%

SMILES	inhibition
COc1ccc(CN(CCCl)CCCl)cc1Cl	inactive: 2.71%
CN(C)c1cccc(C(=O)NCC2(N3CCCCC3)CCCCC2)c1	inactive: 1.22%
COc1cc(OC)c(C(=O)NCC2(N(C)C)CCCCC2)cc1OC	inactive: -4.86%
O=C(NCC1(N2CCOCC2)CCCCC1)c1cc(F)c(F)cc1Cl	inactive: -1.48%
CCC(c1nnnn1C(C)(C)C)N1CCC(n2c(=O)[nH]c3ccccc32)CC1 (stereo not drawn)	inactive: -2.97%
CCCCn1nnnc1C(c1ccnc2ccccc12)N1CCC(n2c(=O)[nH]c3ccccc32)CC1 (stereo not drawn)	inactive: 0.649%
O=C(NCC1(N2CCCCC2)CCCCC1)c1cccc(C(F)(F)F)c1	inactive: -1.81%
O=C(NCC1(N2CCOCC2)CCCCC1)c1cc(=O)[nH]c2ccccc12	inactive: 19.5%
COc1cc(C(=O)NCC2(N3CCCCC3)CCCCC2)ccc1OC(F)F	inactive: -11%
CCCCn1nnnc1C(c1cccc2ccccc12)N1CCC(n2c(=O)[nH]c3ccccc32)CC1 (stereo not drawn)	inactive: 21.2%
CC(C)c1ccc(C(=O)NCC2(N3CCOCC3)CCCCC2)cc1	inactive: -0.261%
COc1ccc(NC2CCN(C(=O)OC(C)(C)C)CC2)cc1	inactive: -0.177%
CN1CCN(CCOC(=O)C(O)(c2ccccc2)c2ccccc2)CC1	inactive: -3.58%
CC(C)(C)n1nnnc1C(c1ccccc1OC(F)(F)F)N1CCC(n2c(=O)[nH]c3ccccc32)CC1 (stereo not drawn)	inactive: 0.649%
O=C(NCC1(N2CCCCC2)CCCCC1)c1ccc(OC(F)F)cc1	inactive: 3.55%
CCN1CCC(Nc2ccc(Cl)cc2)CC1	inactive: -1.41%
N#CC1(Nc2ccccc2)CCN(CCc2ccccc2)CC1	inactive: -1.72%
O=c1[nH]c2ccccc2n1C1CCN(C(c2ccccc2OC(F)(F)F)c2nnnn2C2CCCC2)CC1 (stereo not drawn)	inactive: 4.84%
CSc1ccc(C(=O)NCC2(N3CCOCC3)CCCCC2)cc1	inactive: -2.41%
O=C(NCC1(N2CCCCC2)CCCCC1)c1cccc([N+](=O)[O-])c1	inactive: -3.56%
